Source: US20240270826A1 (NATIONAL RESEARCH COUNCIL OF CANADA, published 2024)

B1: NRCoV2-1d VHH (VHH)
VHH: EVQLVESGGGSVQPGGSLRLSCAASGSTLDYYAIGWFRQAPGKEREWVSSVSSSDGNTLYADSVKGRFTISRDNAKNTVYLQMNSLKAEDTAVYVCAADYSMRPFAVGRWHRDYEYWGQGTQVTVSS
B2: NRCoV2-SR03 VHH (VHH)
VHH: AVQLVDSGGGLVQAGGSLRLSCAASGSIFSNNHMGWYRQAPGKQRELVAAISSGGKTNYADFAKGRFTISRDNAKNMVYLQMNSLKPEDTAVYYCNRGGWEYRSSYYIMGPHWGQGTQVTVSS
B3: NRCoV2-15 VHH (VHH)
VHH: EVQLVSSGGGLVEAGGSLRLSCIASGSTSGRNTMGWFRQAPGKQREWVAIVSTSGATNYAGSVKGRFTLSRDNAKNAVYLQMNNLKPEDTAVYYCYAAYGGGGDYWGQGTQVTVSS
B4: NRCoV2-20 VHH (VHH)
VHH: EVQLQQSGGGLVQPGGSLRLSCAASGRTFSNYVVGWFRQAPQAPGKDHEFVAVISGSDTETYYADSVKGRFTISRDNAKNTVYLQMNSLKPEDTAVYYCAADRGMSYYYTRATEYYYWGQGTQVTVSS
B5: NRCoV2-SR13 VHH (VHH)
VHH: EVQLVESGGGLVTTGGSLRLSCATSGSRFGSKHMAWYRQAPGKQRDLVAAISSGGSTHYGSSVKGRFTISRDNAKSTVYLQMNSLNPEDTAVFYCNMGGWDYRSNTYIPGSRSDYWGQGTQVTVSS
B6: NRCoV2-MRed04 VHH (VHH)
VHH: EVQLVESGGGLVQPGRSLRLSCAASGNSFSISTMGWFRQAPGKERELVASIWSDTTTSYADSVKGRFTISTDNTRTKVYLQMSSLNPEDTAVYYCAADRGFVVRGQYDYWGQGTQVTVSS
B7: NRCoV2-03 VHH (VHH)
VHH: EVQLVSSGGGLVQAGGSLRLSCTASGITFSYYAMGWYRQAPGQPRELVASMSNMDSTIYADSVKGRFTISRDNAKTTIYLQMNNLKPEDTAVYFCNIYGPTYSTRRNEYWGQGTQVTVSS
B8: NRCoV2-10 VHH (VHH)
VHH: QLQLQESGGGLVQPGGSLTLSCAASGNTFSRSNMHWYRQAPGAQREWVAAISSRGISTYAYSAKGRFTISRDNAKNTVSLQMNSLKPEDTAVYYCYAADDLGDYWGQGTQVTVSS
B9: NRCoV2-17 VHH (VHH)
VHH: EVQLQQSGGGLVQTGGSLRLSCAAAGSPFSQLAMSWYRQISGKERAWVASISPTGNRSYSKIAKGRFTISRDNAKNTVTLQMTSLKPEDTAAYICQAANVNGGDYWGQGTQVTVSS
B10: NRCoV2-SR04 VHH (VHH)
VHH: QVQLVESGGGLVQAGGSLRLSCAASGRTFSSHTVGWYRQAPGKQRDLVAAISMGGNTNYADYADSVKGRFTISRDNAKNTLYLQMNSLKPEDTAVYYCNTAALVGNRLLPMATITWGQGTQVTVSS
B11: NRCoV2-SR01 VHH (VHH)
VHH: EVQLVQSGGGSVQAGGSLRLSCVASGFTFDNYAIGWFRQAPGKEREGVSCISGNGGVTIYADSVKGRFTISRDNAKNLVYLQMNSLKPEDTAVYYCAATGIRSTWSVYGCSRLAGPYDYWGQGTQVTVSS
B12: NRCoV2-18 VHH (VHH)
VHH: EVQLVESGGGLVQAGGSLRLSCVASGITISGYNMAWWRQTRGKQTERVAFINSGGSTTYSDSVKGRFTISRDNGKNTAYLQMNSLNAEDTADYFCSLHTSHDYWGQGTQVTVSS
B13: NRCoV2-07 VHH (VHH)
VHH: QVQLVQSGGGLVQPGGSLRLSCAASGVTLDYYAIGWFRQAPGKEREAVSCISSNGRRNHYVASVRGRFTISRDNAKSTVYLQMNSLKPEDTAVYYCAAVQDVHGDNYYCTSPNEYNVWGQGTQVTVSS
B14: NRCoV2-11 VHH (VHH)
VHH: EVQLVSSGGGLVQPGGSLRLSCAASGSSLDSYSVSWFRQAPGKEREWISFISRYYSSTYYTDSVKGRFTTSRDGDQKTVHLQMNSLKPEDTAVYYCAARSRDFSSPFSATDTYTSWGQGTQVTVSS
B15: NRCoV2-06 VHH (VHH)
VHH: EVQLVQSGGGLVQAGESLRLSCAASVSTFSSYAMGWYRQAPGKQRELVASIGFVGATYYIDSVKGRFTISRDNAKKTAYLQMNDLKPDDTAVYYCNARHYGGSEYWGQGTQVTVSS
B16: NRCoV2-SR02 VHH (VHH)
VHH: EVQLVDSGGGLVQAGGSLRLSCTASEFTLNYYSIGWFRQSPGKEREGVSCIRYSGGGIDYADSVKGRFTISRDNAKNTVYLTMNSLKPEDTAVYYCAADRLYSRACPTAGGRNYWGQGTQVTVSS
B17: NRCoV2-02 VHH (VHH)
VHH: EVQLVESGGGLVQAGGSLRLSCAASGFTFSNYAMNWVRQAPGKGLEWVSGISGRGDDTRYADSVKGRFTISRDNAKNTLFLQMRSLRPEDTGVYRCTKGPDLYYFGSGYSDRGQGTQVTVSS
B18: NRCoV2-14 VHH (VHH)
VHH: EVQLVSSGGGLVQAGGSLRLSCEASGTTFSHYAVGWYRQAPGKQREWVASISVFGSTTYGGSVAGRFTISRDNDKNTVDLQMNSLKPEDTAVYYCHAVNADIGGDYWGQGTQVTVSS
B19: NRCoV2-MRed22 VHH (VHH)
VHH: EVQLVESGGGLVQPGGSLRLSCAASGSVFASNAMGWYRQAPGKQRELVATISSRGSTNYADSVKGRFTISRDNAKNTVYLQMNSLGPEDTAVYYCNAREFTGFDYWGQGTQVTVSS
B20: NRCoV2-S2G4 VHH (VHH)
VHH: QVQLVQSGGGLVQAGGSLTLSCAPSGSTFSGYATNWYRQAPGKQRELVATISSDGDKNYADSVKGRFTISRDNAKNTVYLQMNSLKPEDTAVYYCNKHWWTGDWWGQGTQVTVSS
B21: NRCoV2-05 VHH (VHH)
VHH: EVKLVQSGGGLVQPGGSLRLSCAASGFIFSNYAMNWVRQAPGKGLEWVSGINSGGGDTRYADSVKGRFTVSRDNAKNTLYLQMNSLKPEDTGVYYCSKGPVSSYYGSGYDYRGQGTQVTVSS
B22: NRCoV2-04 VHH (VHH)
VHH: AVQLVDSGGGLVQPGGSLRLSCAASGSPFSNVVMAWYRQAPGKQRERVAFISGGGIADYIMSVKGRFTISRDNAKNTVYLQMNSLKPEDTAVYYCWSSYESTWGQGTQVTVSS

These binders were tested against T1, Human SARS-CoV-2 Beta (B.1.351) S (SARS-CoV-2 (Beta, B.1.351)) (assay: SPR, VHH over immobilised S).

Binder	Kd [nM]	koff [s⁻¹]	kon [M⁻¹ s⁻¹]
B1	1.18	0.000956	812000
B2	2.49	0.0014	564000
B3	22.2	0.00328	148000
B4	5.47	0.0114	2.08e+06
B5	7.02	0.00401	571000
B6	1.07	0.00123	1.14e+06
B7	4.08	0.000226	55400
B8	9.73	0.00262	270000
B9	5.14	0.00588	1.14e+06
B10	0.324	0.000723	2.24e+06
B11	0.202	0.000221	1.09e+06
B12	0.365	0.000101	276000
B13	1.05	0.000321	305000
B14	0.0227	1.72e-05	757000
B15	248	0.00614	24800
B16	0.15	0.000628	4.19e+06

These binders were tested against T2, Human SARS-CoV-2 Alpha (B.1.1.7) S (SARS-CoV-2 (Alpha, B.1.1.7)) (assay: SPR, VHH over immobilised S).

Binder	Kd [nM]	koff [s⁻¹]	kon [M⁻¹ s⁻¹]
B1	0.907	0.00102	1.13e+06
B17	13.6	0.0222	1.64e+06
B2	1.72	0.000955	555000
B3	0.305	0.000194	637000
B18	2.44	0.000917	375000
B4	4.97	–	2.48e+06
B5	5.82	0.00344	592000
B19	0.246	0.00022	896000
B6	0.909	0.00122	1.34e+06
B7	1.49	0.000154	103000
B8	0.21	0.000102	484000
B20	0.187	0.000292	1.56e+06
B21	11.4	0.0261	2.28e+06
B22	11.7	0.0196	1.67e+06
B9	0.125	7.64e-05	–
B10	0.267	0.00075	2.8e+06
B11	0.591	0.000594	1.01e+06
B12	0.353	9.79e-05	278000
B13	1.12	0.000378	339000
B14	0.0171	1.59e-05	928000
B15	229	0.00468	–
B16	0.0559	0.000254	4.54e+06

Biological target: T1, Human SARS-CoV-2 Beta (B.1.351) S
Test: SPR, VHH over immobilised S
Remark: another data set of the same source

Binder	Kd [nM]
B1	1.2
B2	2.49
B3	22.2
B4	5.47
B5	7
B6	1.07
B7	4.08
B8	9.73
B9	5.1
B10	0.32
B11	0.2
B12	0.37
B13	1.1
B14	0.023
B15	248

Biological target: T2, Human SARS-CoV-2 Alpha (B.1.1.7) S
Test: SPR, VHH over immobilised S
Remark: another data set of the same source

Binder	Kd [nM]
B1	0.91
B17	13.6
B2	1.72
B3	0.31
B18	2.44
B4	4.97
B5	5.8
B19	0.25
B6	0.91
B7	1.49
B8	0.21
B20	0.19
B21	11.4
B22	11.7
B9	0.13
B10	0.27
B11	0.59
B12	0.35
B13	1.1
B14	0.017
B15	229
